Tested on: H1N1 A/PR/8/1934
Parameters: species or system DBA/2J mice
Conditions: mouse, in vivo

B1: mAb 39.29 NCv1: anti-hemagglutinin monoclonal antibody; VL SEQ ID NO:144, VH SEQ ID NO:142 (antibody, V domains shown)
VH: QVQLVESGGGVVQPGKSPRLSCAASGPTFSSYAVHWVRQAPGKGLEWVTLISYDGANQYYADSVKGRFTISRDNSKNTVYLQMNSLRPEDTAVYYCAVPGPVFGIFPPWSYFDNWGQGILVTVSS
VL: EIVLTQSPATLSVSPGERATLSCRASQVISHNLAWYQQKPGQAPRLLIYGASTRASGIPARFSGSGSGTDYTLTITSLQPEDFAVYYCQHYSNWPPRLTFGGGTKVEIK
animals protected from lethal challenge: 25% | efficacy versus control treatment group: minimal efficacy | infected mice saved (survival) (iv, 15 mg/kg): 87.5%
